Compound potency records, mixed from different reports. Data source: NIAID ChemDB in PubChem.

Shared fields: whole-cell or culture tests; species: Herpes simplex virus 1; read-out: EC50

ECn is the concentration giving n% inhibition of infection, replication or growth. An empty or dashed field is not shown. Lines come from different laboratories, so protocols vary.

SMILES | strain | cells | read by | value
Nc1nc2c(ncn2CC(CO)CCO)c(=O)[nH]1 | 7935-72 | VERO | plaque count | 0.15 µM
O=c1[nH]c(=O)n([C@H]2C[C@H](O)[C@@H](CO)O2)cc1/C=C/Br | KOS | ESM | cytopathic effect | 0.007 µg/mL
Nc1nc2c(ncn2CCCC(CO)CO)c(=O)[nH]1 | KJ502 | VERO | plaque count | 0.5 µM
COCc1cn([C@H]2C[C@H](O)[C@@H](CO)O2)c(=O)[nH]c1=O | MMUDR-resistant | RK-13 | plaque count | 1176 µM
O=C(O)CP(=O)(O)O | E-377 | MEF | plaque count | 4.6 µg/mL
Nc1ncnc2c1ncn2C[C@@H](CO)OCP(=O)(O)O | Schooler | WI-38 | plaque count | 3 µM
C[C@H]1[C@H](O)[C@@H](CO)O[C@H]1n1cc(I)c(=O)[nH]c1=O | A4-3 | RPMI8226 | cytopathic effect | >74.5 µg/mL
Nc1nc2c(ncn2COCCO)c(=O)[nH]1 | KOS | T-21 | cytopathic effect | 0.04 µg/mL
[O-][n+]1onc2ncnc(N3CC[N+]4(CC3)CC[N+]3(CCN(c5ncnc6no[n+]([O-])c56)CC3)CC4)c21 | K1R | GMK | plaque count | 8.4 µM
C[C@@H](c1ccccc1)N(CC(=O)Nc1ccc(-c2csc(N)n2)cc1)C(=O)c1ccncc1 | 615.8 | BHK-21/C13 | plaque count | 0.15 µM
Nc1ccn([C@@H]2O[C@H](CO)[C@@H](O)[C@@H]2O)c(=O)n1 | KOS | BALB/3T3 | cytopathic effect | 0.2 µg/mL
Cn1cc(C(=O)NCc2ccc(Cl)cc2)c(=O)c2cc(CN3CCOCC3)ccc21 | 11359 (ACV-resistant) | HFF | plaque count | 2.9 µM
Nc1nc2c(ncn2COC(CO)CO)c(=O)[nH]1 | ICI | VERO H | plaque count | 0.06 µM
C[C@H]1[C@H](O)[C@@H](CO)O[C@H]1n1cc(F)c(N)nc1=O | KOS | RPMI8226 | cytopathic effect | >66.9 µg/mL
O=c1[nH]c(=O)n([C@@H]2O[C@H](CO)[C@@H](O)[C@@H]2O)cc1/C=C/Br | KOS | HeLa | cytopathic effect | 0.07 µg/mL
C[C@H]1[C@H](O)[C@@H](CO)O[C@H]1n1cc(I)c(N)nc1=O | F | RPMI8226 | cytopathic effect | 1.89 µg/mL
O=C(NCc1ccc(Cl)cc1)c1c[nH]c2ccc(CCCO)cc2c1=O | KOS |  | plaque count | 7.4 µM
C[C@H]1[C@H](O)[C@@H](CO)O[C@H]1n1cc(Br)c(N)nc1=O | KOS | RPMI8226 | cytopathic effect | 6.2 µg/mL
O=C(NCc1ccc(Cl)cc1)c1cn2c3c(cc(CN4CCOCC4)cc3c1=O)OC(c1cccnc1)C2 | F | HFF | plaque count | 6.7 µM
Nc1nc2c(ncn2COCCO)c(=O)[nH]1 | 15985 SC16-S1 (acyclovir-resistant) | HFF | cytopathic effect | >50 µg/mL
O=c1[nH]c(=O)n([C@H]2C[C@H](O)[C@@H](CO)O2)cc1I | KOS | T-21 | cytopathic effect | 0.08 µg/mL

3 of the rows above, restated:

SMILES | strain | cells | read by | value
Nc1nc2c(ncn2CCCC(CO)CO)c(=O)[nH]1 | KJ502 | VERO | plaque count | 0.5 µM
Nc1nc2c(ncn2COCCO)c(=O)[nH]1 | KOS | T-21 | cytopathic effect | 0.04 µg/mL
C[C@@H](c1ccccc1)N(CC(=O)Nc1ccc(-c2csc(N)n2)cc1)C(=O)c1ccncc1 | 615.8 | BHK-21/C13 | plaque count | 0.15 µM